A mixed list of measured activities; the numbers were collected in NIAID ChemDB.

Common to all: target-level tests; agent: HIV-1; protein: Protease

Rows are shuffled and stem from different studies.

structure | read-out | strain | conditions | method | value
C=CC[C@H](NC(=O)[C@H](Cc1ccccc1)NS(=O)(=O)N1CCOCC1)C(=O)N[C@@H](CC1CCCCC1)[C@@H](O)C[C@H](C(=O)NCCCC)C(C)C | IC50 |  |  | HPLC | 0.015 µM
CCCOCCCNC(=O)[C@@H](NC(=O)[C@H](Cc1ccc(OC)c(OC)c1OC)C[C@H](O)[C@H](Cc1ccccc1)NC(=O)OC(C)(C)C)C(C)C | IC50 |  |  | fluorescence | 0.003 µM
CC(C)c1ccccc1Sc1c(O)cc(-c2ccc(OCCCc3ccccc3)cc2)oc1=O | IC50 |  | pH 4.7 | HPLC | 3.5 µM
CC(=O)ONc1ccc(S(=O)(=O)N(Cc2ccccc2)C[C@@H](O)[C@H](Cc2ccccc2)NC(=O)Cc2c[nH]c3ccccc23)cc1 | IC50 |  |  |  | 0.014 µM
Cc1cc(F)cc(C)c1OCC(=O)N[C@@H](Cc1ccccc1)[C@@H](O)C[C@H](Cc1ccccc1)NC(=O)[C@H](C(C)C)N1CCCNC1=O | IC50 |  |  |  | <0.0005 µM
CC(=O)Nc1ccc(SSc2ccc(NC(C)=O)cc2C(N)=O)c(C(N)=O)c1 | IC50 |  |  |  | >100 µM
O=S1(=O)N(Cc2ccccc2)C[C@H](O)[C@@H](O)CN1Cc1ccccc1-c1ccccc1 | Ki |  |  | fluorescence | >20 µM
CC(C)(CCCOC(=O)Oc1ccc([N+](=O)[O-])cc1)CN(C[C@@H](O)[C@H](Cc1ccccc1)NC(=O)O[C@H]1CO[C@H]2OCC[C@H]21)S(=O)(=O)c1ccc2c(c1)OCO2 | Ki |  |  | fluorescence | <0.001 µM
C=C(C)/C([O-])=N/[N+](C)(Cc1ccccc1)C[C@H](O)[C@H](Cc1ccccc1)NC(=O)OC(C)(C)C | IC50 |  |  | HPLC | 5 µM
CC(C)c1ccccc1Sc1c(O)cc(-c2ccc(OCCc3ccccc3)cc2)oc1=O | IC50 |  | pH 4.7 | HPLC | 1.1 µM
O=S1(=O)N(Cc2ccccc2)C[C@H](O)[C@@H](O)CN1Cc1ccccc1/C=C/c1ccccc1 | Ki |  |  | fluorescence | >20 µM
CC(=O)ONc1ccc(S(=O)(=O)N(CC(C)C)C[C@@H](O)[C@H](Cc2ccccc2)NC(=O)CCN2C(=O)c3ccccc3C2=O)cc1 | IC50 |  |  |  | 0.025 µM
CCCN([C@H](CO)CCCC(C)NC(=O)[C@@H](NC(=O)OC)C(c1ccccc1)c1ccccc1)S(=O)(=O)c1ccc(CO)cc1 | IC50 |  |  | HPLC | 0.000014 µM
CC(C)(CCCCOC(=O)NN)CN(C[C@@H](O)[C@H](Cc1ccccc1)NC(=O)O[C@H]1CO[C@H]2OCC[C@H]21)S(=O)(=O)c1ccc2c(c1)OCO2 | Ki |  |  | fluorescence | <0.001 µM
CCC(=O)O[C@H](C/C=C(\C)C(=O)OC)C[C@H](OC(C)=O)[C@@H](CCCOC(=O)CC(C)C)OC(=O)CC(C)C | Ki |  |  | fluorescence | 5 µM
CC(C)CN(C[C@@H](O)[C@H](Cc1ccccc1)NC(=O)CN1C(=O)c2ccccc2C1=O)S(=O)(=O)c1ccc(Br)cc1 | IC50 |  |  |  | 0.03 µM
CCOC(=O)NCCC(C)(C)CN(C[C@@H](O)[C@H](Cc1ccccc1)NC(=O)O[C@H]1CO[C@H]2OCC[C@H]21)S(=O)(=O)c1cccc(N)c1 | Ki |  |  | fluorescence | <0.001 µM
CC(C)[C@H](NC(=O)[C@H](Cc1ccc2c(c1)OCO2)C[C@H](O)[C@H](Cc1ccccc1)NC(=O)OC(C)(C)C)C(=O)NCCN(C)C | IC50 |  |  | fluorescence | 0.0075 µM
CC(C)(CCCCNS(C)(=O)=O)CN(C[C@@H](O)[C@H](Cc1ccccc1)NC(=O)OC1COCOC1)S(=O)(=O)c1ccc(N)cc1 | Ki |  |  | fluorescence | <0.001 µM
CC(C)[C@H](NC(=O)[C@H](Cc1ccccc1)C[C@H](O)[C@H](Cc1ccccc1)NC(=O)[C@H](C)NC(=O)OCc1ccccc1)C(N)=O | Ki |  |  | HPLC | 0.0006 µM
CCCCOC(=O)NCCCCCC(C)(C)CN(C[C@@H](O)[C@H](Cc1ccccc1)NC(=O)O[C@H]1CO[C@H]2OCC[C@H]21)S(=O)(=O)c1ccc2c(c1)OCO2 | Ki |  |  | fluorescence | <0.001 µM
Cc1ccc(C(C)C)c(Sc2c(O)cc(-c3ccc(OCc4cccnc4)cc3)oc2=O)c1 | IC50 |  | pH 4.7 | HPLC | 0.073 µM
O/N=C1\CC2(CCN(Cc3ccccc3)CC2)Oc2ccc(Cl)cc21 | IC50 |  |  | absorbance | >10 µM
COc1cc(C[C@H](C[C@H](O)[C@H](Cc2ccccc2)NC(=O)OC(C)(C)C)C(=O)N[C@H](C(=O)N[C@@H](Cc2ccccc2)C(=O)N2CCOCC2)C(C)C)cc(OC)c1OC | IC50 |  |  | fluorescence | 0.022 µM
CC(C)CN(C[C@@H](O)[C@H](Cc1ccccc1)NC(=O)O[C@H]1CO[C@H]2OCC[C@H]21)S(=O)(=O)c1ccc2onc(CNC(C)C)c2c1 | Ki | WT |  | fluorescence | <0.0001 µM
CCc1ccccc1Sc1c(O)cc(-c2ccc(OCc3cccnc3)cc2)oc1=O | IC50 |  | pH 4.7 | HPLC | 0.232 µM
CC(C)N(C(=O)NCCCC(C)(C)CN(C[C@@H](O)[C@H](Cc1ccccc1)NC(=O)O[C@H]1CO[C@H]2OCC[C@H]21)S(=O)(=O)c1ccc2c(c1)OCO2)C(C)C | Ki |  |  | fluorescence | <0.001 µM
CC(C)[C@@H](C(=O)N[C@@H](Cc1ccccc1)C[C@H](O)[C@H](Cc1ccccc1)NC(=O)COc1ccccc1)N1CCCNC1=O | IC50 |  |  |  | <0.0005 µM
CC(C)[C@H](NC(=O)[C@H](Cc1ccccc1)C[C@H](O)[C@H](Cc1ccccc1)NC(=O)OC(C)(C)C)C(=O)N=C(N)N | Ki |  |  | HPLC | 0.0031 µM
COCCNC(=O)[C@@H](NC(=O)[C@H](Cc1ccc(OC)cc1)C[C@H](O)[C@H](Cc1ccccc1)NC(=O)OC(C)(C)C)C(C)C | IC50 |  |  | fluorescence | 0.002 µM
CC(C)(CCNC(=O)Oc1ccc(F)cc1)CN(C[C@@H](O)[C@H](Cc1ccccc1)NC(=O)O[C@H]1CO[C@H]2OCC[C@H]21)S(=O)(=O)c1ccc2c(c1)OCO2 | Ki |  |  | fluorescence | <0.001 µM
CC(C)[C@H](NC(=O)[C@H](Cc1ccccc1)C[C@H](O)[C@H](Cc1ccccc1)NC(=O)OC(C)(C)C)C(N)=O | Ki |  |  | HPLC | 0.0014 µM
CC(C)OC(=O)NCCCC(C)(C)CN(C[C@@H](O)[C@H](Cc1ccccc1)NC(=O)O[C@H]1CO[C@H]2OCC[C@H]21)S(=O)(=O)c1cccc(N)c1 | Ki |  |  | fluorescence | <0.001 µM
CC(C)=CC[C@@H]1C(C)=CC[C@@H](c2ccccc2)[C@@H]1C(=O)c1c(O)cc(O)cc1O | IC50 |  |  | HPLC | 5.6 µM
COc1ccc(C[C@H](C[C@H](O)[C@H](Cc2ccccc2)NC(=O)OC(C)(C)C)C(=O)N[C@H](C(=O)NCCN(C)C)C(C)C)cc1OC | IC50 |  |  | fluorescence | 0.008 µM
C[N+](Cc1ccccc1)(C[C@H](O)[C@H](Cc1ccccc1)NC(=O)OCc1ccccc1)/N=C(\[O-])c1ccccc1 | IC50 |  |  | HPLC | 0.5 µM
CN(C)c1cccc(S(=O)(=O)N(C[C@@H](O)[C@H](Cc2ccccc2)NC(=O)O[C@H]2CO[C@H]3OCC[C@H]32)CC(C)(C)CCC#N)c1 | Ki |  |  | fluorescence | <0.001 µM
Cc1cc(N)cc(C)c1OCC(=O)N[C@@H](Cc1ccccc1)[C@@H](O)C[C@H](Cc1ccccc1)NC(=O)[C@H](C(C)C)N1CCCNC1=O | IC50 |  |  |  | <0.0005 µM
CC(C)(CCCCN)CN(C[C@@H](O)[C@H](Cc1ccccc1)NC(=O)O[C@H]1CO[C@H]2OCC[C@H]21)S(=O)(=O)c1cccc(N)c1 | Ki |  |  | fluorescence | <0.001 µM
CCCN([C@H](CO)CCC[C@H](C)NC(=O)[C@@H](NC(=O)OC)C(c1ccccc1)c1ccccc1)S(=O)(=O)c1ccc(CO)cc1 | IC50 |  |  | HPLC | 0.002581 µM
COc1cc(O)cc(O)c1C(=O)/C=C/c1ccc(O)cc1 | IC50 |  |  | HPLC | >100 µM
CCCCOC(=O)NCCCC(C)(C)CN(C[C@@H](O)[C@H](Cc1ccccc1)NC(=O)O[C@H]1CO[C@H]2OCC[C@H]21)S(=O)(=O)c1ccc2c(c1)OCO2 | Ki |  |  | fluorescence | <0.001 µM
c1ccc(CN2CCC3(CCNc4ccccc4O3)CC2)cc1 | IC50 |  |  | absorbance | >10 µM
CCC(=O)O[C@H](C/C=C(\C)C(=O)OC)C[C@H](OC(C)=O)[C@H](CCCOC(=O)CC(C)C)OC(=O)CC(C)C | Ki |  |  | fluorescence | 16 µM
CC(C)(CCNC(=O)CO)CN(C[C@@H](O)[C@H](Cc1ccccc1)NC(=O)O[C@H]1CO[C@H]2OCC[C@H]21)S(=O)(=O)c1ccc2c(c1)OCO2 | Ki |  |  | fluorescence | <0.001 µM
COc1cc(O)c(C(=O)[C@@H]2[C@H](CC=C(C)C)C(C)=CC[C@H]2c2ccccc2)c(O)c1 | IC50 |  |  | HPLC | 18.7 µM
CCC(C)Nc1n[nH]c2ccc(S(=O)(=O)N(CC(C)C)C[C@@H](O)[C@H](Cc3ccccc3)NC(=O)O[C@H]3CO[C@H]4OCC[C@H]43)cc12 | Ki | WT |  | fluorescence | <0.0001 µM
CC(C)C(=O)NCCCCC(C)(C)CN(C[C@@H](O)[C@H](Cc1ccccc1)NC(=O)O[C@H]1CO[C@H]2OCC[C@H]21)S(=O)(=O)c1ccc2c(c1)OCO2 | Ki |  |  | fluorescence | <0.001 µM
COc1cccc(OC)c1OCC(=O)N[C@@H](Cc1ccccc1)[C@@H](O)C[C@H](Cc1ccccc1)NC(=O)[C@H](C(C)C)N1CCCNC1=O | IC50 |  |  |  | >0.0005 µM
CC(C)[C@H](NC(=O)[C@H](Cc1ccccc1)C[C@H](O)[C@H](Cc1ccccc1)NC(=O)OC(C)(C)C)C(=O)N[C@@H](Cc1ccccc1)C(=O)N1CCOCC1 | IC50 |  |  | fluorescence | 0.009 µM
CC(C)(CCCCNS(C)(=O)=O)CN(C[C@@H](O)[C@H](Cc1ccccc1)NC(=O)O[C@H]1CO[C@H]2OCC[C@H]21)S(=O)(=O)c1cccc2c1OCCO2 | Ki |  |  | fluorescence | <0.001 µM
CC(C)(C)OC(=O)N[C@@H](Cc1ccccc1)[C@@H](O)C[N+](C)(Cc1ccccc1)/N=C(\[O-])Cc1ccccc1 | IC50 |  |  | HPLC | 1 µM
CNC(=S)NCCCC(C)(C)CN(C[C@@H](O)[C@H](Cc1ccccc1)NC(=O)O[C@H]1CO[C@H]2OCC[C@H]21)S(=O)(=O)c1ccc2c(c1)OCO2 | Ki |  |  | fluorescence | <0.001 µM
COc1ccc2c(c1)NCCC1(CCN(Cc3ccccc3)CC1)O2 | IC50 |  |  | absorbance | >10 µM
O=S1(=O)N(Cc2ccccc2/C=C/c2ccccc2)C[C@H](O)[C@@H](O)CN1Cc1ccccc1-c1ccccc1 | Ki |  |  | fluorescence | 4.9 µM
CC(C)[C@H](NC(=O)[C@H](C/C=C/c1ccccc1)C[C@H](O)[C@H](Cc1ccccc1)NC(=O)OC(C)(C)C)c1ncc[nH]1 | Ki |  |  | HPLC | 0.014 µM
COc1ccc(C[C@H](C[C@H](O)[C@H](Cc2ccccc2)NC(=O)OC(C)(C)C)C(=O)N[C@H](C(=O)N[C@@H](Cc2ccccc2)C(=O)N2CCOCC2)C(C)C)cc1OC | IC50 |  |  | fluorescence | 0.007 µM
NS(=O)(=O)c1ccc(NC(=O)c2ccc(SSc3ccc(C(=O)Nc4ccc(S(N)(=O)=O)cc4)cc3)cc2)cc1 | IC50 |  |  |  | 13 µM
C[N+](Cc1ccccc1)(C[C@H](O)[C@H](Cc1ccccc1)NC(=O)OC1CCOC1)/N=C(\[O-])c1ccccc1 | IC50 |  |  | HPLC | 0.21 µM
CC(C)(CCCCCNC(=O)N1CCCC1)CN(C[C@@H](O)[C@H](Cc1ccccc1)NC(=O)O[C@H]1CO[C@H]2OCC[C@H]21)S(=O)(=O)c1ccc2c(c1)OCO2 | Ki |  |  | fluorescence | <0.001 µM
O=S1(=O)N(Cc2ccccc2/C=C/c2ccccc2)C[C@H](O)[C@@H](O)CN1Cc1ccccc1CCc1ccccc1 | Ki |  |  | fluorescence | >20 µM
CONC(=O)OCCCC(C)(C)CN(C[C@@H](O)[C@H](Cc1ccccc1)NC(=O)O[C@H]1CO[C@H]2OCC[C@H]21)S(=O)(=O)c1ccc2c(c1)OCO2 | Ki |  |  | fluorescence | <0.001 µM
CC(=O)ONc1ccc(S(=O)(=O)N(CC(C)C)C[C@@H](O)[C@H](Cc2ccccc2)NC(=O)[C@H](C)N2C(=O)c3ccccc3C2=O)cc1 | IC50 |  |  |  | 0.012 µM
CNC(=O)NCCC(C)(C)CN(C[C@@H](O)[C@H](Cc1ccccc1)NC(=O)O[C@H]1CO[C@H]2OCC[C@H]21)S(=O)(=O)c1ccc2c(c1)OCO2 | Ki |  |  | fluorescence | <0.001 µM
O=[N+]([O-])c1ccc2c(c1)/C(=N/O)CC1(CCN(Cc3ccccc3)CC1)O2 | IC50 |  |  | absorbance | >10 µM

8 of the rows above, restated:

structure,read-out,strain,conditions,method,value
O=[N+]([O-])c1ccc2c(c1)/C(=N/O)CC1(CCN(Cc3ccccc3)CC1)O2,IC50,,,absorbance,>10 µM
CC(C)=CC[C@@H]1C(C)=CC[C@@H](c2ccccc2)[C@@H]1C(=O)c1c(O)cc(O)cc1O,IC50,,,HPLC,5.6 µM
CC(C)CN(C[C@@H](O)[C@H](Cc1ccccc1)NC(=O)CN1C(=O)c2ccccc2C1=O)S(=O)(=O)c1ccc(Br)cc1,IC50,,,,0.03 µM
O=S1(=O)N(Cc2ccccc2)C[C@H](O)[C@@H](O)CN1Cc1ccccc1-c1ccccc1,Ki,,,fluorescence,>20 µM
c1ccc(CN2CCC3(CCNc4ccccc4O3)CC2)cc1,IC50,,,absorbance,>10 µM
CC(C)[C@H](NC(=O)[C@H](Cc1ccccc1)C[C@H](O)[C@H](Cc1ccccc1)NC(=O)[C@H](C)NC(=O)OCc1ccccc1)C(N)=O,Ki,,,HPLC,0.0006 µM
O/N=C1\CC2(CCN(Cc3ccccc3)CC2)Oc2ccc(Cl)cc21,IC50,,,absorbance,>10 µM
C=C(C)/C([O-])=N/[N+](C)(Cc1ccccc1)C[C@H](O)[C@H](Cc1ccccc1)NC(=O)OC(C)(C)C,IC50,,,HPLC,5 µM

ICn: concentration for n% inhibition. An empty or dashed field is not shown.